Anti-infective test results gathered from many reports (values: NIAID ChemDB through PubChem).

Shared fields: enzyme or target tests

ICn: concentration for n% inhibition. Lines come from different laboratories, so protocols vary. a–b is a range or a potency band. Percent inhibition refers to the dose given; in toxicity tests it is the harm to the cells.

Nc1nc(=O)n([C@@H]2O[C@H](COP(=O)(O)OP(=O)(O)OP(=O)(O)O)[C@@H](O)[C@@H]2F)cc1I ; agent: Epstein-Barr virus ; target: DNA polymerase ; read-out: Ki ; value: 0.95 µM
Cc1cccc(C(=O)N2CCN(c3cncc(-c4ccc5ccccc5c4)n3)CC2C)c1 ; agent: Cytomegalovirus ; target: UL97 kinase ; read-out: IC50 ; value: <100 µM
Clc1cccc(Oc2ccc(-c3cnc4c(-c5nn[nH]n5)cnn4c3C3CCCCC3)cc2)c1 ; agent: Hepatitis C virus ; target: RNA-dependent RNA polymerase ; read-out: IC50 ; value: <1 µM
CCCCCCCCCCCCN1C(=O)N(c2ccc(Cl)cc2)C(=O)C[C@H]1C1OC2OC(C)(C)OC2[C@H]1OC ; agent: Mycobacterium aurum ; target: Alpha-glucosidase ; read-out: inhibition ; dose: 100 µM ; value: 5.7%
O=C(NS(=O)(=O)c1ccccc1)c1cnn2c(C3CCCCC3)c(-c3ccc(OCc4ccccc4)cc3)cnc12 ; agent: Hepatitis C virus ; target: RNA-dependent RNA polymerase ; read-out: IC50 ; value: 1–10 µM
CN(C)CCOc1ccccc1/C=N\N1CCN(C2Cc3ccccc3Sc3ccc(Cl)cc32)CC1 ; agent: Candida albicans ; target: Geranylgeranyl-protein transferase I ; read-out: IC50 ; value: 0.1 µM
COc1c(N2CCNC(C)C2)ccc2c(=O)c(C(=O)O)cn(C3CC3)c12 ; agent: Streptococcus pneumoniae ; target: DNA gyrase ; read-out: IC50 ; value: 147 µg/mL
C/C(=N\NC(=S)NNC(=S)Nc1ccc(I)cc1)c1ccccn1 ; agent: Herpes simplex virus 1 ; target: Ribonucleotide reductase ; read-out: IC50 ; value: >5 µM
COC(=O)N[C@@H](CCCN=C(N)N)C(=O)NC(=O)CCCc1cc(-c2cc3ccccc3cn2)n(-c2ccc3ccccc3c2)n1 ; agent: Candida albicans ; target: Farnesyl-protein transferase ; read-out: IC50 ; value: 78 µM
C/C(=N\NC(=S)NNC(=S)Nc1ccc(Cl)cc1C)c1ccccn1 ; agent: Herpes simplex virus 1 ; target: Ribonucleotide reductase ; read-out: IC50 ; value: >5 µM
NC(=O)[C@H](Cc1ccc(O)cc1)NC(=O)c1cnn2c(C3CCCCC3)c(-c3ccc(F)cc3)cnc12 ; agent: Hepatitis C virus ; target: RNA-dependent RNA polymerase ; read-out: IC50 ; value: <1 µM
CCOC(=O)C[C@@H](C1O[C@@H]2OC(C)(C)O[C@@H]2[C@H]1Oc1ccccc1)N(C(=O)Nc1cccc(C(C)=O)c1)C1CC1 ; agent: Mycobacterium aurum ; target: Alpha-glucosidase ; read-out: inhibition ; dose: 100 µM ; value: 74.7%
COc1cccc(N2CCN(c3cncc(-c4ccccc4)n3)CC2)c1 ; agent: Cytomegalovirus ; target: UL97 kinase ; read-out: IC50 ; value: <100 µM
CN1CCN(c2cc3c(cc2F)c(=O)c(C(=O)O)cn3C2CC2)CC1 ; agent: Streptococcus pneumoniae ; target: Topoisomerase II ; read-out: IC50 ; value: 5.58 µg/mL
CCCCCCCCCCCCN(C(=O)Nc1ccc(Cl)cc1)[C@@H](CC(=O)OCC)C1O[C@@H]2OC(C)(C)O[C@@H]2[C@H]1OC ; agent: Mycobacterium aurum ; target: Alpha-glucosidase ; read-out: inhibition ; dose: 100 µM ; value: 93.5%
CN1CCN(c2ccc3c(=O)c(C(=O)O)cn(C4CC4)c3c2)CC1 ; agent: Streptococcus pneumoniae ; target: DNA gyrase ; read-out: IC50 ; value: 186 µg/mL
Cc1cn([C@@H]2O[C@H](COP(=O)(O)OP(=O)(O)OP(=O)(O)O)[C@@H](O)[C@@H]2F)c(=O)[nH]c1=O ; agent: Epstein-Barr virus ; target: DNA polymerase ; read-out: Ki ; value: 0.08 µM
COc1ccc(OC(=O)c2csc(Cc3c(Cl)cccc3Cl)n2)cc1 ; agent: Candida albicans ; target: Farnesyl-protein transferase ; read-out: IC50 ; value: >100 µM
CCc1cc(Nc2cc(=O)n(CCCC(=O)N(C)Cc3ccco3)c(=O)[nH]2)ccc1C ; agent: Staphylococcus aureus ; target: DNA polymerase ; read-out: IC50 ; value: 0.07 µM
CCOc1ccccc1-c1cncc(N2CCN(c3ccc(C(C)=O)cc3)CC2)n1 ; agent: Cytomegalovirus ; target: UL97 kinase ; read-out: inhibition ; dose: 10 µM ; value: >15%
FC(F)(F)Oc1ccc(COc2ccc(-c3cnc4c(-c5nn[nH]n5)cnn4c3C3CCCCC3)cc2)cc1Cl ; agent: Hepatitis C virus ; target: RNA-dependent RNA polymerase ; read-out: IC50 ; value: 1–10 µM
COc1cccc(-c2cncc(N3CCN(c4ccc(OC)c(OC)c4)CC3)n2)c1 ; agent: Cytomegalovirus ; target: UL97 kinase ; read-out: IC50 ; value: <10 µM
CO[C@@H]1C2OC(C)(C)OC2OC1[C@@H]1CC(=O)N(c2ccc(Cl)cc2)C(=O)N1C1CC1 ; agent: Mycobacterium aurum ; target: Alpha-glucosidase ; read-out: inhibition ; dose: 100 µM ; value: 11.7%
O=C(NNC(=S)N/N=C/c1ccccn1)Nc1ccccc1Cl ; agent: Herpes simplex virus 1 ; target: Ribonucleotide reductase ; read-out: IC50 ; value: >5 µM
c1ccc2cc(-c3cncc(N4CCN(c5ccncc5)CC4)n3)ccc2c1 ; agent: Cytomegalovirus ; target: UL97 kinase ; read-out: IC50 ; value: <1 µM
CCc1cc(Nc2cc(=O)n(CCCC(=O)NCc3ccco3)c(=O)[nH]2)ccc1C ; agent: Staphylococcus aureus ; target: DNA polymerase ; read-out: IC50 ; value: 0.49 µM
O=C(O)c1cc2nc(-c3ccc(C(F)(F)F)cc3)cc(-c3cccc(Cl)c3)n2n1 ; agent: Hepatitis C virus ; target: RNA-dependent RNA polymerase ; read-out: IC50 ; value: >10 µM
CSc1ccc(-c2cncc(N3CCN(c4ccc(Cl)c(Cl)c4)CC3)n2)cc1 ; agent: Cytomegalovirus ; target: UL97 kinase ; read-out: inhibition ; dose: 10 µM ; value: >15%
Nc1ccn([C@@H]2CS[C@H](COP(=O)(O)OP(=O)(O)OP(=O)(O)O)O2)c(=O)n1 ; agent: Duck hepatitis B virus ; target: DNA polymerase ; read-out: Ki ; value: 0.78 µM
COc1cccc(-c2cncc(N3CCN(c4ccc(Cl)cc4)CC3)n2)c1 ; agent: Cytomegalovirus ; target: UL97 kinase ; read-out: IC50 ; value: <10 µM
CCCCCCCCCCCCC/C=C/[C@@H](O)[C@H](CO[C@@H]1O[C@H](CO)[C@H](O)[C@H](OS(=O)(=O)O)[C@H]1O)NC(=O)CCCCCCCCCCCCCCCCCCCCCCC ; agent: Influenza A virus ; strain or isolate: Influenza A/Memphis/1/71 (H3N2) ; target: Sialidase ; read-out: inhibition ; dose: 200 µM ; value: 94.7%
NC1C=CN([C@@H]2O[C@H](COP(=O)(O)OP(=O)(O)OP(=O)(O)O)[C@@H](O)[C@@H]2O)C(=O)N1 ; agent: Woodchuck hepatitis B virus ; target: DNA polymerase ; read-out: IC50 ; value: 1.2 µM
COc1ccc(C2CC(c3cc4ccccc4o3)=NN2c2ccc([N+](=O)[O-])cc2)cc1 ; agent: Candida albicans ; target: Farnesyl-protein transferase ; read-out: IC50 ; value: 0.84 µM
O=C(O)c1cn(C2CC2)c2cc(N3CCNCC3)ccc2c1=O ; agent: Streptococcus pneumoniae ; target: DNA gyrase ; read-out: IC50 ; value: 179 µg/mL
CCOC(=O)c1cc2nc(-c3ccccc3)cc(-c3ccccc3)n2n1 ; agent: Hepatitis C virus ; target: RNA-dependent RNA polymerase ; read-out: IC50 ; value: >10 µM
NC1CCN(c2ccc3c(=O)c(C(=O)O)cn(C4CC4)c3c2Cl)C1 ; agent: Streptococcus pneumoniae ; target: Topoisomerase II ; read-out: IC50 ; value: 8.76 µg/mL
C/C(=N\NC(=S)NNC(=S)NC(=O)c1ccccc1)c1ccccn1 ; agent: Herpes simplex virus 1 ; target: Ribonucleotide reductase ; read-out: IC50 ; value: >5 µM
Cc1cnc2c(-c3nn[nH]n3)cnn2c1C(C)C ; agent: Hepatitis C virus ; target: RNA-dependent RNA polymerase ; read-out: IC50 ; value: >10 µM